Reference: publication PMC10216065 (Biomolecules, 2023)

Target: Mycobacterium tuberculosis SufS (Rv1464) (Mycobacterium tuberculosis)
Experiment: pull-down

B1: Mycobacterium tuberculosis SufU (Rv1465), tag state not told (natural protein)
chain: GSHMVTLRLEQIYQDVILDHYKHPQHRGLREPFGAQVYHVNPICGDEVTLRVALSEDGTRVTDVSYDGQGCSISQAATSVLTEQVIGQRVPRALNIVDAFTEMVSSRGTVPGDEDVLGDGVAFAGVAKYPARVKCALLGWMAFKDALAQASEAFEEVTDERNQRTG
  binding result: binds
